According to patent publication US20080119471A1, “Piperazine urea derivatives for the treatment of endometriosis” (priority 2004, published 2008):

System: surgically induced endometriosis in intact cycling rats
Conditions: rat, 50 mg/kg, 4 weeks, in comparison to the vehicle control (FIG. 4)

C[C@@H]1CN(Cc2ccc(F)cc2)CCN1C(=O)COc1ccc(Cl)cc1NC(N)=O [(2R)-1-((4-chloro-2-(ureido)phenoxy)methyl)carbonyl-2-methyl-4-(4-fluorobenzyl)piperazine]
area and volume of peritoneal endometriotic lesions: reduce effects on area and volume of peritoneal endometriotic cysts in rat
